Assay results from patent publication US20220324835A1 (Nurix Therapeutics, Inc., priority 2018, published 2022).

What was measured:
[1] = test system: in vitro generated exhausted human T-cells; details: exhausted T-cells stimulated with SEB and autologous myeloid cells; for CTLA4 CD4, fold change over baseline: CD4 T-cells; for CTLA4 CD8, fold change over baseline: CD8 T-cells
[2] = test system: in vitro generated exhausted human T-cells; test: Exhausted T-cell activation assessed by cytokine secretion (autologous SEB/myeloid cell model); details: exhausted T-cells stimulated with SEB and autologous myeloid cells, 3 days

C[C@H](Cc1nncn1C)c1cccc(NC(=O)c2cccc(C(F)(F)F)n2)c1 [Compound 183a, (R)-N-(3-(1-(4-methyl-4H-1,2,4-triazol-3-yl)propan-2-yl)phenyl)-6-(trifluoromethyl)picolinamide]
CTLA4 CD4, fold change over baseline [1]: C (C indicates >1.61) | CTLA4 CD8, fold change over baseline [1]: C (C indicates >1.61) | Cytokines GM-CSF, fold change over baseline [2]: C (C indicates >1.61) | Cytokines IFNγ, fold change over baseline [2]: B (B indicates 1.41-1.60) | Cytokines IL-2, fold change over baseline [2]: A (A indicates ≤2.50)

C[C@H](Cc1nncn1C)c1cccc(N2Cc3c(cc(CN4CC(O)C4)cc3C(F)(F)F)C2=O)c1 [Compound 393, (R)-6-((3-hydroxyazetidin-1-yl)methyl)-2-(3-(1-(4-methyl-4H-1,2,4-triazol-3-yl)propan-2-yl)phenyl)-4-(trifluoromethyl)isoindolin-1-one]
CTLA4 CD4, fold change over baseline [1]: C (C indicates >1.61) | CTLA4 CD8, fold change over baseline [1]: C (C indicates >1.61) | Cytokines GM-CSF, fold change over baseline [2]: B (B indicates 1.41-1.60) | Cytokines IFNγ, fold change over baseline [2]: C (C indicates >1.61) | Cytokines IL-2, fold change over baseline [2]: C (C indicates >3.01)

C[C@@H](c1cc2c(c(C(F)(F)F)c1)CN(c1cccc(C3(Cc4nncn4C)COC3)c1)C2=O)N1CC[C@H](F)C1 [Compound 412, 6-((S)-1-((S)-3-fluoropyrrolidin-1-yl)ethyl)-2-(3-(3-((4-methyl-4H-1,2,4-triazol-3-yl)methyl)oxetan-3-yl)phenyl)-4-(trifluoromethyl)isoindolin-1-one]
CTLA4 CD4, fold change over baseline [1]: A (A indicates ≤1.40) | CTLA4 CD8, fold change over baseline [1]: A (A indicates ≤1.40) | Cytokines GM-CSF, fold change over baseline [2]: B (B indicates 1.41-1.60) | Cytokines IFNγ, fold change over baseline [2]: C (C indicates >1.61) | Cytokines IL-2, fold change over baseline [2]: A (A indicates ≤2.50)

C[C@H](Cc1nncn1C)c1cccc(N2Cc3c(cc(CN4CC[C@](C)(O)C4)cc3C(F)(F)F)C2=O)c1 [Compound 398, 6-(((S)-3-hydroxy-3-methylpyrrolidin-1-yl)methyl)-2-(3-((R)-1-(4-methyl-4H-1,2,4-triazol-3-yl)propan-2-yl)phenyl)-4-(trifluoromethyl)isoindolin-1-one]
CTLA4 CD4, fold change over baseline [1]: B (B indicates 1.41-1.60) | CTLA4 CD8, fold change over baseline [1]: C (C indicates >1.61) | Cytokines GM-CSF, fold change over baseline [2]: C (C indicates >1.61) | Cytokines IFNγ, fold change over baseline [2]: C (C indicates >1.61) | Cytokines IL-2, fold change over baseline [2]: B (B indicates 2.51-3.00)

Cn1cnnc1C(F)(F)[C@](C)(F)c1cccc(N2Cc3c(cc(CN4CC[C@@H](C#N)C4)cc3C(F)(F)F)C2=O)c1 [Compound 455, (R)-1-((3-oxo-2-(3-((R)-1,1,2-trifluoro-1-(4-methyl-4H-1,2,4-triazol-3-yl)propan-2-yl)phenyl)-7-(trifluoromethyl)isoindolin-5-yl)methyl)pyrrolidine-3-carbonitrile]
CTLA4 CD4, fold change over baseline [1]: C (C indicates >1.61) | CTLA4 CD8, fold change over baseline [1]: C (C indicates >1.61) | Cytokines GM-CSF, fold change over baseline [2]: C (C indicates >1.61) | Cytokines IFNγ, fold change over baseline [2]: C (C indicates >1.61) | Cytokines IL-2, fold change over baseline [2]: A (A indicates ≤2.50)

C[C@H](Cc1nncn1C)c1cccc(N2Cc3c(cc(CN4CC(C)(O)C4)cc3C(F)(F)F)C2=O)c1 [Compound 397]
CTLA4 CD4, fold change over baseline [1]: C (C indicates >1.61) | CTLA4 CD8, fold change over baseline [1]: C (C indicates >1.61) | Cytokines GM-CSF, fold change over baseline [2]: B (B indicates 1.41-1.60) | Cytokines IFNγ, fold change over baseline [2]: C (C indicates >1.61) | Cytokines IL-2, fold change over baseline [2]: B (B indicates 2.51-3.00)

C[C@H](Cc1nncn1C)c1cccc(N2Cc3c(cc(CN4CC[C@H](F)C4)cc3C(F)(F)F)C2=O)c1 [Compound 399, 6-(((S)-3-fluoropyrrolidin-1-yl)methyl)-2-(3-((R)-1-(4-methyl-4H-1,2,4-triazol-3-yl)propan-2-yl)phenyl)-4-(trifluoromethyl)isoindolin-1-one]
CTLA4 CD4, fold change over baseline [1]: C (C indicates >1.61) | CTLA4 CD8, fold change over baseline [1]: C (C indicates >1.61) | Cytokines GM-CSF, fold change over baseline [2]: C (C indicates >1.61) | Cytokines IFNγ, fold change over baseline [2]: C (C indicates >1.61) | Cytokines IL-2, fold change over baseline [2]: C (C indicates >3.01)

Cc1cc(C(=O)Nc2cccc(C3(Cc4nncn4C)COC3)c2)nc(C2CC2)n1 [Compound 336, 2-cyclopropyl-6-methyl-N-(3-(3-((4-methyl-4H-1,2,4-triazol-3-yl)methyl)oxetan-3-yl)phenyl)pyrimidine-4-carboxamide]
CTLA4 CD4, fold change over baseline [1]: A (A indicates ≤1.40) | CTLA4 CD8, fold change over baseline [1]: A (A indicates ≤1.40) | Cytokines GM-CSF, fold change over baseline [2]: C (C indicates >1.61) | Cytokines IFNγ, fold change over baseline [2]: B (B indicates 1.41-1.60) | Cytokines IL-2, fold change over baseline [2]: C (C indicates >3.01)

Cn1cnnc1[C@@H]1C[C@@H]1c1cccc(N2Cc3c(ccnc3C(F)(F)F)C2=O)c1 [Compound 369, 2-{3-[(1S,2R)-2-(4-methyl-4H-1,2,4-triazol-3-yl)cyclopropyl]phenyl}-4-(trifluoromethyl)-1H,2H,3H-pyrrolo[3,4-c]pyridin-1-one]
CTLA4 CD4, fold change over baseline [1]: A (A indicates ≤1.40) | CTLA4 CD8, fold change over baseline [1]: A (A indicates ≤1.40) | Cytokines GM-CSF, fold change over baseline [2]: A (A indicates ≤1.40) | Cytokines IFNγ, fold change over baseline [2]: A (A indicates ≤1.40) | Cytokines IL-2, fold change over baseline [2]: A (A indicates ≤2.50)

Cn1cnnc1CC1(c2cccc(N3Cc4c(cc(CN5CC(F)C5)cc4C(F)(F)F)C3=O)c2)COC1 [Compound 415, 6-((3-fluoroazetidin-1-yl)methyl)-2-(3-(3-((4-methyl-4H-1,2,4-triazol-3-yl)methyl)oxetan-3-yl)phenyl)-4-(trifluoromethyl)isoindolin-1-one]
CTLA4 CD4, fold change over baseline [1]: C (C indicates >1.61) | CTLA4 CD8, fold change over baseline [1]: C (C indicates >1.61) | Cytokines GM-CSF, fold change over baseline [2]: C (C indicates >1.61) | Cytokines IFNγ, fold change over baseline [2]: C (C indicates >1.61) | Cytokines IL-2, fold change over baseline [2]: A (A indicates ≤2.50)

C[C@H](Cc1nncn1C)c1cccc(NC(=O)c2cc3cc(N4CCNCC4)ccc3cn2)c1 [Compound 472, N-{3-[(2R)-1-(4-methyl-4H-1,2,4-triazol-3-yl)propan-2-yl]phenyl}-6-(piperazin-1-yl)isoquinoline-3-carboxamide]
CTLA4 CD4, fold change over baseline [1]: B (B indicates 1.41-1.60) | CTLA4 CD8, fold change over baseline [1]: B (B indicates 1.41-1.60) | Cytokines GM-CSF, fold change over baseline [2]: A (A indicates ≤1.40) | Cytokines IFNγ, fold change over baseline [2]: C (C indicates >1.61) | Cytokines IL-2, fold change over baseline [2]: A (A indicates ≤2.50)

C[C@H](Sc1nncn1C)c1cccc(NC(=O)c2cc(C(=O)N3CC[C@H](O)C3)ccn2)c1 [Compound 140, 4-[[(3S)-3-hydroxypyrrolidin-1-yl]carbonyl]-N-[3-[(1S)-1-[(4-methyl-4H-1,2,4-triazol-3-yl)sulfanyl]ethyl]phenyl]pyridine-2-carboxamide]
CTLA4 CD4, fold change over baseline [1]: A (A indicates ≤1.40) | CTLA4 CD8, fold change over baseline [1]: A (A indicates ≤1.40) | Cytokines GM-CSF, fold change over baseline [2]: A (A indicates ≤1.40) | Cytokines IFNγ, fold change over baseline [2]: A (A indicates ≤1.40) | Cytokines IL-2, fold change over baseline [2]: A (A indicates ≤2.50)

C[C@H](Cc1nncn1C)c1cccc(N2Cc3c(ccnc3C3CC3)C2=O)c1 [Compound 257, 4-cyclopropyl-2-[3-[(1R)-1-methyl-2-(4-methyl-1,2,4-triazol-3-yl)ethyl]phenyl]-3H-pyrrolo[3,4-c]pyridin-1-one]
CTLA4 CD4, fold change over baseline [1]: A (A indicates ≤1.40) | CTLA4 CD8, fold change over baseline [1]: A (A indicates ≤1.40) | Cytokines GM-CSF, fold change over baseline [2]: A (A indicates ≤1.40) | Cytokines IFNγ, fold change over baseline [2]: C (C indicates >1.61) | Cytokines IL-2, fold change over baseline [2]: A (A indicates ≤2.50)

CNCc1ccc(C(=O)Nc2cccc([C@H](C)Cc3nncn3C)c2)nc1C1CC1 [Compound 376, (R)-6-cyclopropyl-N-(3-(1-(4-methyl-4H-1,2,4-triazol-3-yl)propan-2-yl)phenyl)-5-((methylamino)methyl)picolinamide]
CTLA4 CD4, fold change over baseline [1]: C (C indicates >1.61) | CTLA4 CD8, fold change over baseline [1]: C (C indicates >1.61) | Cytokines GM-CSF, fold change over baseline [2]: A (A indicates ≤1.40) | Cytokines IFNγ, fold change over baseline [2]: A (A indicates ≤1.40) | Cytokines IL-2, fold change over baseline [2]: B (B indicates 2.51-3.00)

Cn1cnnc1CC1(c2cccc(NC(=O)c3nc4c(C(F)(F)F)cccc4[nH]3)c2)COC1 [Compound 335, N-(3-{3-[(4-methyl-1,2,4-triazol-3-yl)methyl]oxetan-3-yl}phenyl)-4-(trifluoromethyl)-1H-1,3-benzodiazole-2-carboxamide]
CTLA4 CD4, fold change over baseline [1]: C (C indicates >1.61) | CTLA4 CD8, fold change over baseline [1]: C (C indicates >1.61) | Cytokines GM-CSF, fold change over baseline [2]: A (A indicates ≤1.40) | Cytokines IFNγ, fold change over baseline [2]: B (B indicates 1.41-1.60) | Cytokines IL-2, fold change over baseline [2]: C (C indicates >3.01)

Cn1cnnc1CC1(c2cccc(N3Cc4c(cc(CN5CCC6(CC6)C5)cc4C(F)(F)F)C3=O)c2)COC1 [Compound 520, 6-((5-azaspiro[2.4]heptan-5-yl)methyl)-2-(3-(3-((4-methyl-4H-1,2,4-triazol-3-yl)methyl)oxetan-3-yl)phenyl)-4-(trifluoromethyl)isoindolin-1-one]
CTLA4 CD4, fold change over baseline [1]: C (C indicates >1.61) | CTLA4 CD8, fold change over baseline [1]: C (C indicates >1.61) | Cytokines GM-CSF, fold change over baseline [2]: B (B indicates 1.41-1.60) | Cytokines IFNγ, fold change over baseline [2]: A (A indicates ≤1.40) | Cytokines IL-2, fold change over baseline [2]: B (B indicates 2.51-3.00)

Cn1cnnc1C(F)(F)[C@](C)(F)c1cccc(N2Cc3c(cc(N4CCNCC4)cc3C(F)(F)F)C2=O)c1 [Compound 442, (R)-6-(Piperazin-1-yl)-2-(3-(1,1,2-trifluoro-1-(4-methyl-4H-1,2,4-triazol-3-yl)propan-2-yl)phenyl)-4-(trifluoromethyl)isoindolin-1-one]
Cytokines GM-CSF, fold change over baseline [2]: A (A indicates ≤1.40) | Cytokines IFNγ, fold change over baseline [2]: B (B indicates 1.41-1.60) | Cytokines IL-2, fold change over baseline [2]: C (C indicates >3.01)
